Measured values from several laboratories, pooled; numbers as filed in NIAID ChemDB.

All rows: tests in culture; organism: Staphylococcus aureus

MIC50, MIC90 and the like: level of inhibition, or share of isolates inhibited. Rows are shuffled and stem from different studies.

{"SMILES": "Cc1cn(-c2ccc(N3C[C@H](CSC4C=NN=N4)OC3=O)cc2F)cn1", "strain or isolate": "122 (novobiocin-resistant)", "endpoint": "MIC", "result": "8 µg/mL"}
{"SMILES": "CCCCCCCCCCCC[N+](C)(C)COC1CCCCCCCCCCC1", "strain or isolate": "ATCC 6538", "endpoint": "MBC", "result": "3.36 µM"}
{"SMILES": "CC(C)(N)CNc1cc2c(cc1F)c(=O)c(C(=O)O)cn2C1CC1", "strain or isolate": "ATCC 6538P", "endpoint": "MIC", "result": "12.5 µg/mL"}
{"SMILES": "O=C1O[C@@H](COc2ccon2)CN1c1ccc(-n2cccc2)cc1", "strain or isolate": "004 (methicillin quinolone-resistant)", "endpoint": "MIC", "result": "8 µg/mL"}
{"SMILES": "CC(C)NCCNc1cc2c(cc1F)c(=O)c(C(=O)O)cn2C1CC1", "strain or isolate": "ATCC 5278 (methicillin-resistant)", "endpoint": "MIC", "result": "100 µg/mL"}
{"SMILES": "CCCCCCCCOC[N+](C)(C)CCCCCCCC", "strain or isolate": "ATCC 6538", "endpoint": "MBC", "result": "14.9 µM"}
{"SMILES": "CCN(CC)CCCNc1cc2c(cc1F)c(=O)c(C(=O)O)cn2C1CC1", "strain or isolate": "ATCC 5278 (methicillin-resistant)", "endpoint": "MIC", "result": "50 µg/mL"}
{"SMILES": "CCCCCCCC[N+](C)(C)COC1CCCCCCCCCCC1", "strain or isolate": "ATCC 6538", "endpoint": "MBC", "result": "12.8 µM"}
{"SMILES": "CNc1c(F)cc2c(=O)c(C(=O)O)cn(-c3cc(N)c(F)cc3F)c2c1C", "strain or isolate": "27 isolates", "endpoint": "Mean MIC", "result": "0.007 µg/mL"}
{"SMILES": "CCCNCCNc1cc2c(cc1F)c(=O)c(C(=O)O)cn2C1CC1", "strain or isolate": "ATCC 5278 (methicillin-resistant)", "endpoint": "MIC", "result": ">100 µg/mL"}
{"SMILES": "CS(=O)(=O)N[C@H]1CCN(c2ccc(N3C[C@H](COc4cnsn4)OC3=O)cc2F)C1", "strain or isolate": "122 (novobiocin-resistant)", "endpoint": "MIC", "result": "0.5 µg/mL"}
{"SMILES": "Cc1c(NCCO)c(F)cc2c(=O)c(C(=O)O)cn(-c3cc(N)c(F)cc3F)c12", "strain or isolate": "27 isolates", "endpoint": "Mean MIC", "result": "0.02 µg/mL"}
{"SMILES": "CCCCCCCCCCCC[N+](C)(C)COC1CCCCC1", "strain or isolate": "ATCC 6538", "endpoint": "MBC", "result": "27.6 µM"}
{"SMILES": "CCCCN(CCCC)CCNc1cc2c(cc1F)c(=O)c(C(=O)O)cn2C1CC1", "strain or isolate": "ATCC 6538P", "endpoint": "MIC", "result": "100 µg/mL"}
{"SMILES": "CCCCCCCCCCCC[N+](C)(C)COCCCCCCCC", "strain or isolate": "ATCC33592", "endpoint": "MBC", "result": "3.82 µM"}
{"SMILES": "N#Cc1ccn(-c2ccc(N3C[C@H](COc4ccon4)OC3=O)cc2F)c1", "strain or isolate": "078 (oxford)", "endpoint": "MIC", "result": "0.5 µg/mL"}
{"SMILES": "NCCCCCNc1cc2c(cc1F)c(=O)c(C(=O)O)cn2C1CC1", "strain or isolate": "ATCC 6538P", "endpoint": "MIC", "result": ">100 µg/mL"}
{"SMILES": "CCCCCCCCCCCC[N+](C)(C)CSCCCCCCCC", "strain or isolate": "ATCC33592", "endpoint": "MBC", "result": "24.4 µM"}
{"SMILES": "Cc1c(N)c(F)cc2c(=O)c(C(=O)O)cn(-c3cc(N)c(F)cc3F)c12", "strain or isolate": "27 isolates", "endpoint": "MIC90", "result": "0.015 µg/mL"}

The last 3 rows once more:

SMILES,strain or isolate,endpoint,result
NCCCCCNc1cc2c(cc1F)c(=O)c(C(=O)O)cn2C1CC1,ATCC 6538P,MIC,>100 µg/mL
CCCCCCCCCCCC[N+](C)(C)CSCCCCCCCC,ATCC33592,MBC,24.4 µM
Cc1c(N)c(F)cc2c(=O)c(C(=O)O)cn(-c3cc(N)c(F)cc3F)c12,27 isolates,MIC90,0.015 µg/mL